A mixed list of measured activities; the numbers were collected in NIAID ChemDB.

Common to all: growth or infection tests; agent: HIV-1; cells: MT-4; read-out: EC50

Neighbouring rows are from separate reports. a–b is a range or a potency band. ECn: concentration that inhibits the pathogen or its effect by n%. Blank or dashed fields: not listed here.

compound	strain or isolate	mutations	method	value
CCOC(=O)c1cn2c(c1O)C(=O)N(Cc1ccccc1)CC2	-	-	p24	<20 µM
CN1CCN(S(=O)(=O)N(C)C2COCCn3c2nc(C(=O)NCc2ccc(F)cc2)c(O)c3=O)CC1	-	-	p24	<1 µM
O=c1[nH]cnc2c1ncn2[C@H]1C[C@@H](CO)O1	-	-	antigen	<3 µg/mL
CCNC(=O)c1cn2c(c1O)C(=O)N(Cc1ccc(F)cc1)CC2	-	-	p24	<20 µM
CC(C)(C)NC(=O)[C@@H]1CCCN1C(=O)[C@@H](O)[C@H](Cc1ccccc1)NC(=O)[C@H](CC(N)=O)NC(=O)COc1ccccc1	-	-	antigen	4.5–6 µg/mL
Nc1nc(N)c2ncn([C@H]3C[C@H](F)[C@@H](CO)O3)c2n1	IIIB	-	cytopathic effect	4.5 µM
COc1cc2c(cc1Cc1cccc(Cl)c1F)c(=O)c(C(=O)O)cn2[C@H](CO)C(C)C	IIIB	-	-	0.0033 µM
N#CSc1ccc2nc(NC(=O)CN3C(=O)S/C(=C/c4ccccc4Cl)C3=O)sc2c1	IIIB	-	MTT	>73 µM
CN1CCn2c(nc(C(=O)NCc3ccc(F)cc3)c(O)c2=O)C(NS(C)(=O)=O)C1	-	-	p24	<50 µM
COc1c(Cl)ccc2c1[C@@](C#Cc1ccccc1)(C(F)(F)F)NC(=O)N2	-	RT-K103N	p24	<0.113 µM
CC1c2nc(C(=O)NCc3ccc(F)cc3)c(O)c(=O)n2CCN1Cc1cocn1	-	-	p24	<1 µM
CC(C)CN(C[C@@H](O)[C@H](Cc1ccccc1)NC(=O)O[C@H]1CO[C@H]2OCC[C@H]21)S(=O)(=O)c1ccc2[nH]c(O)c(C=NCc3nc4ccccc4[nH]3)c2c1	-	L10 V32 M46 L63 A71 I84	MTT	>0.4 µM
O=C1Nc2ccc(Cl)cc2[C@@](C#CC2CC2)(C(F)(F)F)N1	-	RT-K103N	p24	<0.01 µM
COC(=O)C(=O)N1CCC[C@H]1C(=O)N[C@@H](Cc1ccccc1)C(=O)Nc1ccc(OCC(=O)N[C@@H](CC(N)=O)C(=O)N[C@@H](Cc2ccccc2)[C@H](O)C(=O)N2CCC[C@H]2C(=O)NC(C)(C)C)cc1	-	-	antigen	>100 µg/mL
CC1=CN([C@H]2C[C@H](N=[N+]=[N-])[C@@H](CO)O2)Cn2nnnc21	-	-	-	8.5 µM
Nc1ncnc2c1ncn2[C@@H]1O[C@H](CO)[C@@H]1O	-	-	antigen	<3 µg/mL
COC(=O)Cc1cn([C@@H]2C=C[C@H](COP(=O)(N[C@@H](C)C(=O)OC)Oc3ccccc3)O2)c(=O)[nH]c1=O	IIIB	-	-	>100 µM
CCC(C)Sc1nc(Cc2cc(C)cc(C)c2)cc(=O)[nH]1	IIIB	-	cytopathic effect / MTT	0.6 µM
CC1(C)c2nc(C(=O)NCc3ccc(F)cc3)c(O)c(=O)n2CCN1Cc1cn[nH]n1	-	-	p24	<1 µM
Nc1nc2c(ncn2COCCO)c(=O)[nH]1	IIIB	-	cytopathic effect / MTT	>555 µM
C[C@H](NP(=O)(OC[C@H]1C=C[C@@H](n2ccc3c(N)ncnc32)C1)Oc1ccccc1)C(=O)OCc1ccccc1	-	-	cytopathic effect / MTS	0.175 µM
Cc1nc2ccccc2c(-c2cc(F)c3c(c2C)CCCO3)c1[C@H](OC(C)(C)C)C(=O)O	NL4-3	T174I	luminescence	7.27 µM
CC(C)(C)NC(=O)[C@@H]1C[C@H](O)CN1C(=O)[C@@H](O)[C@H](Cc1ccccc1)NC(=O)[C@H](CC(N)=O)NC(=O)OCc1ccccc1	-	-	antigen	10–30 µg/mL
O=c1nc(NO)ccn1[C@@H]1O[C@H](CO)C=C1Cl	-	-	-	>500 µM
O=C(Cc1cn([C@H]2C=C[C@@H](CO)O2)c(=O)[nH]c1=O)NCCCCCCCCCCNC(=O)c1c2ccccc2nc2ccccc12	IIIB	-	-	>10 µM
CCOC(=O)c1cn2c(c1O)C(=O)N(Cc1ccc(F)cc1)CC2	-	-	p24	<20 µM
Cc1cn([C@H]2O[C@@H](CO)C[C@@H]2N=[N+]=[N-])c(=O)[nH]c1=O	-	-	RT activity	>100 µM
COC(=O)Cc1cn([C@H]2C=C[C@@H](COP(=O)(N[C@@H](C)C(=O)OC)Oc3ccccc3)O2)c(=O)[nH]c1=O	IIIB	-	-	100 µM
CSCO[C@H]1C[C@H](n2cc(C)c(=O)[nH]c2=O)O[C@@H]1CO	-	-	-	>500 µM
Cc1cn([C@H]2C[C@H](N=[N+]=[N-])[C@@H](CO)O2)c(=O)[nH]c1=O	IIIB	-	-	0.0026 µM
COc1cc(/C=C2/SC(=O)N(CC(=O)Nc3nc4ccc(SC#N)cc4s3)C2=O)ccc1O	IIIB	-	MTT	>100 µM
CCOC(=O)c1cn2c(c1O)C(=O)N(Cc1cccc(Cl)c1)CC2	-	-	p24	<20 µM
Cc1ccc(C(C)C)c(O)c1	IIIB	-	MTT	>1000 µg/mL
CN1CCn2cc(C(=O)NCc3ccc(F)cc3)c(O)c2C1=O	-	-	p24	<20 µM
N#CSc1ccc2nc(N)sc2c1	IIIB	-	MTT	>26 µM
NCCCC[C@H](COC(N)=O)NC(=O)CN(CCCCN)C(=O)OC[C@@H](N)CCCNc1c(N)c(=O)c1=O	-	-	cytopathic effect / MTT	12.4 µM
CNc1ccn([C@@H]2O[C@H](CO)C=C2Cl)c(=O)n1	-	-	-	>500 µM
COc1cc(/C=C2/SC(=O)N(CC(=O)Nc3nc4ccc(SC#N)cc4s3)C2=O)cc(OC)c1OC	IIIB	-	MTT	>54 µM
CC1(C)CC=C(c2cn(-c3nccc(C(=O)NC4CCC(N5CC6CCC(C5)O6)CC4)n3)c3ccc(F)c([C@H](OC(C)(C)C)C(=O)O)c23)CC1	NL4-3	Q148K	luminescence	0.004 µM
N#CSc1ccc2nc(NC(=O)CN3C(=O)S/C(=C/c4ccc(Cl)cc4)C3=O)sc2c1	IIIB	-	MTT	>100 µM
COC(=O)[C@H](C)NP(=O)(OC[C@@H]1CC[C@H](n2cnc3c(N)ncnc32)C1)Oc1ccccc1	-	-	cytopathic effect / MTS	0.2 µM
CC(C)(CN)NC(=O)[C@@H]1CCCN1C(=O)[C@@H](O)[C@H](Cc1ccccc1)NC(=O)[C@H](CC(N)=O)NC(=O)OCc1ccccc1	-	-	antigen	>100 µg/mL
N#CSc1ccc2nc(NC(=O)CN3C(=O)S/C(=C/c4ccccc4)C3=O)sc2c1	IIIB	-	MTT	>73 µM
Nc1ccn([C@@H]2O[C@H](CO)C=C2Cl)c(=O)n1	-	-	-	>500 µM
COC(=O)[C@H](C)NP(=O)(OC[C@@H]1C=C[C@H](n2cc(CC(=O)NCCCCCCCCCCNC(=O)C(F)(F)F)c(=O)[nH]c2=O)O1)Oc1ccccc1	IIIB	-	-	>10 µM
O=c1[nH]cnc2c1ncn2[C@@H]1O[C@H](CO)[C@H]1COS(=O)(=O)O	-	-	antigen	<10 µg/mL
O=C1Nc2ccc(Cl)c3c2[C@](C(F)(F)F)(C=C(c2ccccc2)O3)N1	-	RT-K103N	p24	<0.046 µM
COC(=O)C(C)(C)NP(=O)(OC[C@H]1C=C[C@@H](n2ccc3c(N)ncnc32)C1)Oc1ccccc1	-	-	cytopathic effect / MTS	0.3 µM
N#CSc1ccc2nc(NC(=O)CN3C(=O)S/C(=C/c4ccc(O)cc4)C3=O)sc2c1	IIIB	-	MTT	>56 µM
O=C(/C=C/C(F)(F)F)NCCCCN1CCCC2=C[C@@H]3C[C@@H](CN4CCCC[C@H]34)[C@@H]21	NL4-3	-	luciferase	2.55 µM
O=C1Nc2ccc(Cl)c3c2[C@](C(F)(F)F)(C=C(c2cccnc2)O3)N1	-	RT-K103N	p24	<0.076 µM
C=C1[C@H](n2cnc3c(N)ncnc32)O[C@@H]1CO	-	-	antigen	<3 µg/mL
COC(=O)[C@H](C)NP(=O)(OC[C@@H]1C=C[C@H](n2cc(CC(=O)NCCCCCCCCCCCCNC(=O)C(F)(F)F)c(=O)[nH]c2=O)O1)Oc1ccccc1	IIIB	-	-	>10 µM
COC(=O)C(=O)N1CCC[C@H]1C(=O)N[C@H](Cc1ccccc1)C(=O)NCCCc1ccc(OCC(=O)N[C@@H](CC(N)=O)C(=O)N[C@@H](Cc2ccccc2)[C@H](O)C(=O)N2CCC[C@H]2C(=O)NC(C)(C)C)cc1	-	-	antigen	>100 µg/mL
N#CSc1ccc2nc(NC(=O)CN3C(=O)S/C(=C/c4cccc(Br)c4)C3=O)sc2c1	IIIB	-	MTT	>73 µM
Nc1nc2c(ncn2[C@H]2C=C[C@@H](CO)O2)c(=O)[nH]1	IIIB Laboratory strain	-	cytopathic effect / trypan blue	>5 µM
Cc1cn([C@H]2O[C@@H](CO)C[C@@H]2O)c(=O)[nH]c1=O	-	-	RT activity	>100 µM

The first 5 rows once more:

compound | strain or isolate | mutations | method | value
CCOC(=O)c1cn2c(c1O)C(=O)N(Cc1ccccc1)CC2 | - | - | p24 | <20 µM
CN1CCN(S(=O)(=O)N(C)C2COCCn3c2nc(C(=O)NCc2ccc(F)cc2)c(O)c3=O)CC1 | - | - | p24 | <1 µM
O=c1[nH]cnc2c1ncn2[C@H]1C[C@@H](CO)O1 | - | - | antigen | <3 µg/mL
CCNC(=O)c1cn2c(c1O)C(=O)N(Cc1ccc(F)cc1)CC2 | - | - | p24 | <20 µM
CC(C)(C)NC(=O)[C@@H]1CCCN1C(=O)[C@@H](O)[C@H](Cc1ccccc1)NC(=O)[C@H](CC(N)=O)NC(=O)COc1ccccc1 | - | - | antigen | 4.5–6 µg/mL